PubChem BioAssay AID504811, Drosophila RNAi Screening Center – 2011

Purpose: 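Fly genes whose silencing alters Listeria monocytogenes infection in cultured cells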 (primary screen)
Cells: Drosophila SL2 cells
Reagents: long dsRNA against Drosophila genes
Treatment: infection with GFP-expressing Listeria monocytogenes; dose and duration not given
Read-out: 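Cells infected with GFP-tagged Listeria were imaged, and bacterial fluorescence was judged visually against control wells as reduced, increased or clustered in dots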
Active means: 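Hit when the GFP pattern of infection differs visibly from controls, classed as down, up or spots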
Calls: active = hit; inactive = not a hit
The reagents shown are a selection, not the whole library. 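Only hits are listed, without non-hit dsRNAs or numeric scores; replicate 2 has entries for just two rows.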 A number with no mark means an inactive call. Names joined by + are all predicted targets of the reagent. Not given: the amount of reagent, the time to read-out.

Target gene	dsRNA	infection phenotype, replicate 1
PCNA (GeneID 37290)	DRSC07653	less bacterial GFP than control wells (fewer infected cells or weaker signal per cell) (active)
CG12343 (GeneID 36143)	DRSC06135	less bacterial GFP than control wells (fewer infected cells or weaker signal per cell) (active)
Rpn6 (GeneID 36638)	DRSC07541	less bacterial GFP than control wells (fewer infected cells or weaker signal per cell) (active)
Polr2B (GeneID 41721)	DRSC16831	less bacterial GFP than control wells (fewer infected cells or weaker signal per cell) (active)
Vha55 (GeneID 41550)	DRSC16896	less bacterial GFP than control wells (fewer infected cells or weaker signal per cell) (active)
Prosalpha1R + Prosalpha1	DRSC07515	less bacterial GFP than control wells (fewer infected cells or weaker signal per cell) (active)
Prosalpha7 (GeneID 36018)	DRSC07516	less bacterial GFP than control wells (fewer infected cells or weaker signal per cell) (active)
Prosalpha5 (GeneID 36951)	DRSC07514	less bacterial GFP than control wells (fewer infected cells or weaker signal per cell) (active)
sncRNA:430e + His2A:CG33859 + His2A:CG33817 + 37 more	DRSC21264	stronger bacterial GFP per infected cell than controls (active)
nsl1 (GeneID 41911)	DRSC15625	stronger bacterial GFP per infected cell than controls (active)
lark (GeneID 38811)	DRSC11362	less bacterial GFP than control wells (fewer infected cells or weaker signal per cell) (active)
deltaCOP (GeneID 45250)	DRSC18760	less bacterial GFP than control wells (fewer infected cells or weaker signal per cell) (active)
Ran (GeneID 44072)	DRSC20364	less bacterial GFP than control wells (fewer infected cells or weaker signal per cell) (active)
RpL24 (GeneID 34754)	DRSC03185	stronger bacterial GFP per infected cell than controls (active)
beta'COP (GeneID 45757)	DRSC03492	less bacterial GFP than control wells (fewer infected cells or weaker signal per cell) (active)
CG14712 (GeneID 41397)	DRSC14935	less bacterial GFP than control wells (fewer infected cells or weaker signal per cell) (active)
RpL7A (GeneID 31588)	DRSC18709	stronger bacterial GFP per infected cell than controls (active)
CG17493 (GeneID 3355126)	DRSC03798	less bacterial GFP than control wells (fewer infected cells or weaker signal per cell) (active)
RpL5 (GeneID 3355124)	DRSC03801	stronger bacterial GFP per infected cell than controls (active)
Rab21 (GeneID 3355163)	DRSC20968	less bacterial GFP than control wells (fewer infected cells or weaker signal per cell) (active)
Rbp (GeneID 41880)	DRSC15724	less bacterial GFP than control wells (fewer infected cells or weaker signal per cell) (active)
mtt (GeneID 35832)	DRSC05106	less bacterial GFP than control wells (fewer infected cells or weaker signal per cell) (active)
anne (GeneID 317815)	DRSC17103	stronger bacterial GFP per infected cell than controls (active)
mute (GeneID 2768848)	DRSC06562	less bacterial GFP than control wells (fewer infected cells or weaker signal per cell) (active)
Sec3 (GeneID 39940)	DRSC10384	less bacterial GFP than control wells (fewer infected cells or weaker signal per cell) (active)
RpL21 (GeneID 35453)	DRSC03704	stronger bacterial GFP per infected cell than controls (active)
Prosalpha6 (GeneID 34359)	DRSC03401	less bacterial GFP than control wells (fewer infected cells or weaker signal per cell) (active)
mv (GeneID 38259)	DRSC08208	bacterial GFP seen as punctate clusters; pointing to bacteria failing to leave the vacuole (active)
mv (GeneID 38259)	DRSC08570	bacterial GFP seen as punctate clusters; pointing to bacteria failing to leave the vacuole (active)
RpL18A (GeneID 36985)	DRSC07538	stronger bacterial GFP per infected cell than controls (active)
RpL10 (GeneID 43864)	DRSC11947	stronger bacterial GFP per infected cell than controls (active)
Arpc5 (GeneID 33444)	DRSC00730	less bacterial GFP than control wells (fewer infected cells or weaker signal per cell) (active)
RpL28 + snoRNA:Or-CD12	DRSC08293	stronger bacterial GFP per infected cell than controls (active)
Srlp (GeneID 41533)	DRSC15890	stronger bacterial GFP per infected cell than controls (active)
Vha26 (GeneID 40679)	DRSC12371	less bacterial GFP than control wells (fewer infected cells or weaker signal per cell) (active)
grsm (GeneID 41587)	DRSC14165	stronger bacterial GFP per infected cell than controls (active)
Taf4 (GeneID 39765)	DRSC11297	less bacterial GFP than control wells (fewer infected cells or weaker signal per cell) (active)
MED16 (GeneID 37535)	DRSC04506	less bacterial GFP than control wells (fewer infected cells or weaker signal per cell) (active)
Sec23 (GeneID 40694)	DRSC12387	less bacterial GFP than control wells (fewer infected cells or weaker signal per cell) (active)
alphaTub84D (GeneID 40904)	DRSC12623	less bacterial GFP than control wells (fewer infected cells or weaker signal per cell) (active)
RpL13 (GeneID 34329)	DRSC03416	stronger bacterial GFP per infected cell than controls (active)
Cbp80 (GeneID 44409)	DRSC18450	less bacterial GFP than control wells (fewer infected cells or weaker signal per cell) (active)
Prosbeta3 (GeneID 41079)	DRSC16801	less bacterial GFP than control wells (fewer infected cells or weaker signal per cell) (active)
BubR1 (GeneID 35522)	DRSC04838	stronger bacterial GFP per infected cell than controls (active)
CG6015 (GeneID 42593)	DRSC15948	less bacterial GFP than control wells (fewer infected cells or weaker signal per cell) (active)
Rop (GeneID 38493)	DRSC08693	less bacterial GFP than control wells (fewer infected cells or weaker signal per cell) (active)
RpS3 (GeneID 42761)	DRSC16838	stronger bacterial GFP per infected cell than controls (active)
Hsc70-3 (GeneID 32133)	DRSC20253	stronger bacterial GFP per infected cell than controls (active)
Ctns (GeneID 42723)	DRSC15175	stronger bacterial GFP per infected cell than controls (active)
RpL35 (GeneID 31483)	DRSC18347	stronger bacterial GFP per infected cell than controls (active)
RpS15Ab + RpS15Aa	DRSC19831	stronger bacterial GFP per infected cell than controls (active)
Hmgcr (GeneID 42803)	DRSC16704	less bacterial GFP than control wells (fewer infected cells or weaker signal per cell) (active)
CR11700 (retired record) (GeneID 5740245)	DRSC17794	less bacterial GFP than control wells (fewer infected cells or weaker signal per cell) (active)
Rab7 (GeneID 42841)	DRSC16810	less bacterial GFP than control wells (fewer infected cells or weaker signal per cell) (active)
Sec5 (GeneID 33563)	DRSC00714	less bacterial GFP than control wells (fewer infected cells or weaker signal per cell) (active)
CSN4 (GeneID 35759)	DRSC07350	less bacterial GFP than control wells (fewer infected cells or weaker signal per cell) (active)
dmt (GeneID 41180)	DRSC16932	stronger bacterial GFP per infected cell than controls (active)
RpL14 (GeneID 38983)	DRSC11269	stronger bacterial GFP per infected cell than controls (active)
Hel25E (GeneID 33781)	DRSC03342	less bacterial GFP than control wells (fewer infected cells or weaker signal per cell) (active)
alphaTub85E (GeneID 41183)	DRSC16899	less bacterial GFP than control wells (fewer infected cells or weaker signal per cell) (active)
Skp2 (GeneID 40548)	DRSC12329	stronger bacterial GFP per infected cell than controls (active)
Bet3 (GeneID 39090)	DRSC10388	less bacterial GFP than control wells (fewer infected cells or weaker signal per cell) (active)
Cdc2rk (GeneID 36051)	DRSC07590	less bacterial GFP than control wells (fewer infected cells or weaker signal per cell) (active)
RpL35A (GeneID 40654)	DRSC12302	stronger bacterial GFP per infected cell than controls (active)
RpL36A (GeneID 34098)	DRSC03055	stronger bacterial GFP per infected cell than controls (active)
Rab10 (GeneID 33025)	DRSC20572	less bacterial GFP than control wells (fewer infected cells or weaker signal per cell) (active)
Taf6 (GeneID 40134)	DRSC11299	less bacterial GFP than control wells (fewer infected cells or weaker signal per cell) (active)
velo (GeneID 38748)	DRSC09698	less bacterial GFP than control wells (fewer infected cells or weaker signal per cell) (active)
CG1542 (GeneID 43691)	DRSC15035	less bacterial GFP than control wells (fewer infected cells or weaker signal per cell) (active)
fand (GeneID 36514)	DRSC06967	stronger bacterial GFP per infected cell than controls (active)
RpL13A (GeneID 40687)	DRSC12265	stronger bacterial GFP per infected cell than controls (active)
Prosbeta6 (GeneID 39855)	DRSC11256	less bacterial GFP than control wells (fewer infected cells or weaker signal per cell) (active)
snf (GeneID 31442)	DRSC18835	less bacterial GFP than control wells (fewer infected cells or weaker signal per cell) (active)
Rab2 (GeneID 35577)	DRSC05017	less bacterial GFP than control wells (fewer infected cells or weaker signal per cell) (active)
SmF (GeneID 36314)	DRSC07397	stronger bacterial GFP per infected cell than controls (active)
CycT (GeneID 39961)	DRSC11124	less bacterial GFP than control wells (fewer infected cells or weaker signal per cell) (active)
FASN1 (GeneID 33524)	DRSC00268	less bacterial GFP than control wells (fewer infected cells or weaker signal per cell) (active)
E2f1 (GeneID 42550)	DRSC16655	stronger bacterial GFP per infected cell than controls (active)
cactin (GeneID 33043)	DRSC20576	stronger bacterial GFP per infected cell than controls (active)
Ykt6 (GeneID 31706)	DRSC17970	less bacterial GFP than control wells (fewer infected cells or weaker signal per cell) (active)
crn (GeneID 31208)	DRSC18755	less bacterial GFP than control wells (fewer infected cells or weaker signal per cell) (active)
CG10660 (GeneID 39422)	DRSC09769	bacterial GFP seen as punctate clusters; pointing to bacteria failing to leave the vacuole (active)
VhaAC45 (GeneID 35944)	DRSC07058	less bacterial GFP than control wells (fewer infected cells or weaker signal per cell) (active)
RpS14b (GeneID 47219)	DRSC18711	stronger bacterial GFP per infected cell than controls (active)
Arp2 (GeneID 32623)	DRSC19332	less bacterial GFP than control wells (fewer infected cells or weaker signal per cell) (active)
nebu (GeneID 39458)	DRSC09807	less bacterial GFP than control wells (fewer infected cells or weaker signal per cell) (active)
Prp8 (GeneID 36304)	DRSC07293	less bacterial GFP than control wells (fewer infected cells or weaker signal per cell) (active)
row (GeneID 36685)	DRSC07077	less bacterial GFP than control wells (fewer infected cells or weaker signal per cell) (active)
CG32280 (GeneID 317952)	DRSC08024	less bacterial GFP than control wells (fewer infected cells or weaker signal per cell) (active)
Sf3b2 (GeneID 33514)	DRSC00619	stronger bacterial GFP per infected cell than controls (active)
Klp61F (GeneID 38135)	DRSC08671	stronger bacterial GFP per infected cell than controls (active)
ush (GeneID 33225)	DRSC00843	less bacterial GFP than control wells (fewer infected cells or weaker signal per cell) (active)
RpL12 (GeneID 45329)	DRSC04344	stronger bacterial GFP per infected cell than controls (active)
RpLP0 (GeneID 40451)	DRSC11878	stronger bacterial GFP per infected cell than controls (active)
RpL27 (GeneID 43103)	DRSC15638	stronger bacterial GFP per infected cell than controls (active)
Sec6 (GeneID 37142)	DRSC06932	less bacterial GFP than control wells (fewer infected cells or weaker signal per cell) (active)
tum (GeneID 36538)	DRSC07575	less bacterial GFP than control wells (fewer infected cells or weaker signal per cell) (active)
ACC (GeneID 35761)	DRSC07249	less bacterial GFP than control wells (fewer infected cells or weaker signal per cell) (active)
Spt5 (GeneID 53442)	DRSC07556	less bacterial GFP than control wells (fewer infected cells or weaker signal per cell) (active)
RpS24 (GeneID 37589)	DRSC04414	stronger bacterial GFP per infected cell than controls (active)
His2B:CG33894 + His2B:CG33872 + His2B:CG33902 + 20 more	DRSC21265	stronger bacterial GFP per infected cell than controls (active)
RpL27A (GeneID 33654)	DRSC00781	stronger bacterial GFP per infected cell than controls (active)
pbl (GeneID 38879)	DRSC11381	stronger bacterial GFP per infected cell than controls (active)
Rpt4 (GeneID 31567)	DRSC18713	less bacterial GFP than control wells (fewer infected cells or weaker signal per cell) (active)
RpL10Ab (GeneID 39338)	DRSC10798	stronger bacterial GFP per infected cell than controls (active)
Rab35 (GeneID 33014)	DRSC20691	less bacterial GFP than control wells (fewer infected cells or weaker signal per cell) (active)
Arpc2 (GeneID 35311)	DRSC02113	less bacterial GFP than control wells (fewer infected cells or weaker signal per cell) (active)
alphaCOP (GeneID 38199)	DRSC08706	less bacterial GFP than control wells (fewer infected cells or weaker signal per cell) (active)
RpS6 (GeneID 31700)	DRSC18712	stronger bacterial GFP per infected cell than controls (active)

Reformatted: results already given
RpL13A (GeneID 40687) [DRSC12265] — infection phenotype, replicate 1: stronger bacterial GFP per infected cell than controls (active)
Prosbeta6 (GeneID 39855) [DRSC11256] — infection phenotype, replicate 1: less bacterial GFP than control wells (fewer infected cells or weaker signal per cell) (active)
snf (GeneID 31442) [DRSC18835] — infection phenotype, replicate 1: less bacterial GFP than control wells (fewer infected cells or weaker signal per cell) (active)
Rab2 (GeneID 35577) [DRSC05017] — infection phenotype, replicate 1: less bacterial GFP than control wells (fewer infected cells or weaker signal per cell) (active)
SmF (GeneID 36314) [DRSC07397] — infection phenotype, replicate 1: stronger bacterial GFP per infected cell than controls (active)
CycT (GeneID 39961) [DRSC11124] — infection phenotype, replicate 1: less bacterial GFP than control wells (fewer infected cells or weaker signal per cell) (active)
FASN1 (GeneID 33524) [DRSC00268] — infection phenotype, replicate 1: less bacterial GFP than control wells (fewer infected cells or weaker signal per cell) (active)
E2f1 (GeneID 42550) [DRSC16655] — infection phenotype, replicate 1: stronger bacterial GFP per infected cell than controls (active)
cactin (GeneID 33043) [DRSC20576] — infection phenotype, replicate 1: stronger bacterial GFP per infected cell than controls (active)
Ykt6 (GeneID 31706) [DRSC17970] — infection phenotype, replicate 1: less bacterial GFP than control wells (fewer infected cells or weaker signal per cell) (active)
crn (GeneID 31208) [DRSC18755] — infection phenotype, replicate 1: less bacterial GFP than control wells (fewer infected cells or weaker signal per cell) (active)
CG10660 (GeneID 39422) [DRSC09769] — infection phenotype, replicate 1: bacterial GFP seen as punctate clusters; pointing to bacteria failing to leave the vacuole (active)
VhaAC45 (GeneID 35944) [DRSC07058] — infection phenotype, replicate 1: less bacterial GFP than control wells (fewer infected cells or weaker signal per cell) (active)
RpS14b (GeneID 47219) [DRSC18711] — infection phenotype, replicate 1: stronger bacterial GFP per infected cell than controls (active)
Arp2 (GeneID 32623) [DRSC19332] — infection phenotype, replicate 1: less bacterial GFP than control wells (fewer infected cells or weaker signal per cell) (active)
nebu (GeneID 39458) [DRSC09807] — infection phenotype, replicate 1: less bacterial GFP than control wells (fewer infected cells or weaker signal per cell) (active)
Prp8 (GeneID 36304) [DRSC07293] — infection phenotype, replicate 1: less bacterial GFP than control wells (fewer infected cells or weaker signal per cell) (active)
